This is an account of results in paper PMC5278390 (Scientific Reports, 2017).

Numbering of substitutions follows the chain as printed. Names may count otherwise.

The experiment deals with T1, HA Ig (extracellular part of the HA protein of influenza PR8 fused to human IgG1), biotinylated (influenza virus A/Puerto Rico/8/34 H1N1 …).
T1 construct: also called biotinylated HA Ig; biotin conjugated HA Ig
Briefly: far-Western, overlay or dot blot. The following applies: both partners purified.

B1: NKp46 Ig (extracellular part of human NKp46 fused to human IgG1) (Fc fusion, UniProt O76036 22-258, looked up)
chain: QQQTLPKPFIWAEPHFMVPKEKQVTICCQGNYGAVEYQLHFEGSLFAVDRPKPPERINKVQFYIPDMNSRMAGQYSCIYRVGELWSEPSNLLDLVVTEMYDTPTLSVHPGPEVISGEKVTFYCRLDTATSMFLLLKEGRSSHVQRGYGKVQAEFPLGPVTTAHRGTYRCFGSYNNHAWSFPSEPVKLLVTGDIENTSLAPEDPTFPADTWGTYLLTTETGLQKDHALWDHTAQNLLR
notes: It runs as two bands on reducing SDS-PAGE, which the authors take to be differently glycosylated products; also called NKp46 fusion protein; WT NKp46 Ig
Consider B1, for which the binding result was “binds”.

B2: NKp46 W32R Ig (extracellular part of human NKp46 W32R fused to human IgG1) (Fc fusion)
chain: B1 chain with W11R
notes: also called NKp46 W32R fusion protein
As to B2, the binding result was “binds”.
